# Source: publication PMC6722883 (FEBS Open Bio, 2019)
# Assay: Degradation kinetics, influence of pH
# Conditions: potassium phosphate buffer, ionic strength 0.3 M
smiles,measurement,value
"CC[C@H](C)[C@@H]1NC(=O)[C@@H]2CCCN2C(=O)[C@H](CO)NC(=O)[C@H](CCSC)NC(=O)[C@H](C)NC(=O)[C@H](CO)NC(=O)[C@@H]2CSSC[C@H](NC(=O)CN)C(=O)N[C@@H](CSSC[C@@H](C(N)=O)NC1=O)C(=O)N[C@@H](CO)C(=O)N[C@@H](Cc1c[nH]cn1)C(=O)N1CCC[C@H]1C(=O)N[C@@H](C(C)C)C(=O)N2 [TxID, α‐Conotoxin TxID]","Reaction rate at pH 3.0, times slower than at pH 2.0",roughly 14 times
